## Mutational tolerance of the Zika virus NS2B-NS3 protease

Reference: Ni et al. 2025, doi:10.1038/s41467-025-63602-z.

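Pools of virus carrying all single amino acid changes were selected for growth in Huh-7.5 cells. The effect is the change in frequency of a mutant, normalised to wild type, as a mean of three replicate libraries (two for positions 207-308).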

Protein: NS2B and the protease part of NS3 of Zika virus strain MR766. Positions count along the chain below; NS2B spans 2-131 and NS3 starts at 132.
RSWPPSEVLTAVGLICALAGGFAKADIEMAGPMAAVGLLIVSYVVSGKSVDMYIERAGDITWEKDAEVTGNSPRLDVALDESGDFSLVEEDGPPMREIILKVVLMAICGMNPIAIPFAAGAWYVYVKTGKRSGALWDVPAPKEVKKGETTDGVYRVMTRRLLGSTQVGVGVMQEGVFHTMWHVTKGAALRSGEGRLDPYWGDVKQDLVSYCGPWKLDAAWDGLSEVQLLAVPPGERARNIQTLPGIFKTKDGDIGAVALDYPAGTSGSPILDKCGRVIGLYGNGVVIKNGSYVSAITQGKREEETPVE

The number is log2 of the effect relative to wild type; negative values mean reduced growth, higher values better tolerance. A change reads original residue, position, new residue. Six mutants with high scores were retested singly and none clearly outgrew wild type, so positive values are not proof of better growth. An asterisk is a stop codon; stop codons read about -7, near the floor of the assay. The authors count -1 or higher as tolerated. Position 1 is the last residue of NS2A. Positions 1-103, 104-206 and 207-308 were made and measured as separate libraries.

mutation,log2 growth effect
P4L,-6.71
S6T,0.60
L9D,-4.48
L14M,-1.18
L14P,-5.50
C16W,-7.24
L18G,-3.19
G21M,-6.55
D26K,-3.09
M29P,-6.87
G31A,-1.49
A34I,-4.81
A34N,-6.21
A35F,-5.54
G37Q,-5.54
S42A,-1.97
V45W,-5.77
R56K,-2.24
T61*,-8.04
T61D,-0.61
E63Q,-1.72
A66M,-6.35
N71S,-0.62
S72H,-5.84
L75I,-0.07
E81Q,-6.50
S82C,-1.27
F85D,-4.51
S86*,-6.93
S86I,-3.06
E89L,-2.92
E90I,-2.39
D91G,-0.85
D91V,-1.40
G92E,-5.05
M95L,-0.64
K101T,-7.57
L104Q,-6.82
I107D,-4.72
C108A,-0.97
M110K,-4.07
I113E,-5.40
I115W,-4.88
F117I,-1.17
A118M,-5.04
A119Y,-3.59
V126E,-2.05
T128R,-0.15
L135P,-7.83
L135S,-8.23
A140W,-4.90
V144T,-1.36
Q166M,-5.67
G168E,-4.66
V171E,-5.18
F177S,-5.30
M180S,-6.21
T184F,-5.73
K185F,-5.30
A187W,-5.39
A188K,-4.85
A188N,-5.07
R195D,-5.25
L196F,-4.61
D197V,-0.51
K204D,-7.05
K204F,-7.02
K204W,-7.03
Q205A,-7.24
Q205E,-6.32
V208G,-8.89
S209T,-0.04
K215I,-6.60
W220V,-6.95
G222*,-8.14
G222E,-4.58
G222Y,-0.26
S224N,-0.09
L228*,-5.83
P233F,-5.91
G234K,-1.49
E235F,-5.45
R236H,1.58
N239R,-6.74
I240K,-5.31
I240V,0.94
F247E,-5.86
K250C,-1.77
D251K,-5.74
D251N,-1.58
G255F,-7.00
A256K,-5.75
A258D,-3.93
G267N,-5.57
R276*,-7.20
L280I,-5.31
L280M,-5.12
V293W,-4.72
Q298N,-4.31
E308T,0.14